Assay results published in patent publication US20040198716A1, “Cysteine protease inhimbitors” (priority 2001, published 2004).

Sequences of proteins named here, by UniProt entry; tags and fusion partners are left off. Residues count along the entry.
UniProt P23008, 1515-1697 limits assumed: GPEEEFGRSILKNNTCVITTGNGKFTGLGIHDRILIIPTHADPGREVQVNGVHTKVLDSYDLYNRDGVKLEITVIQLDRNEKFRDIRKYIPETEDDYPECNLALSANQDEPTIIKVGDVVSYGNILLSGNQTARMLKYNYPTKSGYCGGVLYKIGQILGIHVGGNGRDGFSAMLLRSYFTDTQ

Biological target: Human Rhinovirus serotype 1A 3C Protease (Human rhinovirus 1A, UniProt P23008)
Assay: 3C Protease Biochemical Assay (FRET)
Settings: 30° C., 2-6uM substrate, 416 nM 3CP
Procedure: Human Rhinovirus serotype 1A (ATCC) was used to clone the 3C Protease into the expression vector pET16-b and transformed for production into the E. coli strain BL21-DE3-pLys-S. 3C Protease expression was induced with 1 mM IPTG at 25° C. and purified from the soluble protein extract by chromatography on a SourceQ (Pharmacia) followed by gel filtration. HRV 3CP activity was measured by fluorescence resonance energy transfer using a dimodified decapeptide substrate MOC-[…]DNP-NH2 (7-methoxy coumarin-4-acetic acid fluorochrome and dinitrophenol quencher) with a Km value of 16.8 μM. Inhibition was measured as a change in initial velocity (V0) as a function of inhibitor (I) concentration and substrate (S) concentration. Assays were performed in 100 μL volumes in a 96 well format at 30° C. containing 25 mM Tris HCl pH 8.0, 150 mM NaCl, 1 mM EDTA pH 8.0, 6 mM DTT, 2-6uM substrate, 2% DMSO, 416 nM 3CP and inhibitor as needed. Fluorescence was monitored by excitation at 328 nm and emission at 393 nm with 10 nm cutoffs. Data were analyzed with the nonlinear regression analysis program EnzFitter (BioSoft) with the equation:
Ki=(I/((VmaxxS)/V0)/Ks)−I−S
Substrate concentrations used were lower than the Km of the substrate (16.8 uM) so no corrections for an S/Km term were used.

| SMILES | Ki |
| --- | --- |
| O=c1c(O)cccc2cc(O)c(O)c(O)c12 | 80 µM |
| O=C1C(O)=C(C2=C(O)C(=O)c3ccccc3C2=O)C(=O)c2ccccc21 | 396 µM |
| CC1=CC(=O)c2c(O)cccc2C1=O | 128 µM |
